Results of unrelated studies side by side (data: NIAID ChemDB).

All rows: tests in culture; species: Hepatitis B virus

ECn: concentration that inhibits the pathogen or its effect by n%. Neighbouring rows are from separate reports. An empty or dashed field is not shown. Two numbers with a dash give a range or band.

structure,read by,strain or isolate,cells,endpoint,mutations,result
CCNC(=O)C(=O)N1CCC(NS(=O)(=O)c2cn(C)c(C(=O)Nc3cc(F)c(F)c(F)c3)c2F)CC12CC2,PCR,,HepAD38 cells,EC50,,<0.1 µM
Nc1ncnc2c1ccn2[C@H]1CC(F)[C@@H](CO)O1,,,HepG2 2.2.15,EC50,,117 µM
Cc1cc(NC(=O)c2c3c(cn2C)S(=O)(=O)N[C@H]2CN(C(=O)C(=O)N[C@H](C)C(F)(F)F)C[C@H]2CO3)ccc1F,PCR,,HepAD38,EC50,,<0.5 µM
COc1ccc(-n2c(C(=O)NCc3ccc(C#N)cc3)c3n(c2=O)CCN(C(=O)c2ccc(Cl)c(Cl)c2)C3)cc1,PCR,,HepG2.117,EC50,,>5 µM
C=C1[C@@H](n2cnc3c(N)ncnc32)[C@H](F)[C@H](O)[C@H]1CO,,,Huh7,EC50,L180M+M204V+S202G,0.67 µM
O=C(N/C(C(=O)N1CCCCC1)=C(/Cl)c1ccccc1)c1ccccc1,,,2.2.15,EC50,,5.7 µM
C[C@@H]1O[C@@H](O[C@@H]2C3O[C@@H](c4ccc(O)c(O)c4)COC3O[C@H](CO)[C@H]2O)[C@H](O)[C@H](O)[C@H]1O,ELISA / antigen,,HepG2.2.15,EC50,,420 µM
Cc1c(O)cc2c(c1O)C(=O)[C@H](Cc1ccc(O)cc1)CO2,ELISA / antigen,,,EC50,,3.82 µg/mL
CCOC(=O)Cc1ccc(CNC(=O)c2c3n(c(=O)n2-c2ccc(OC)cc2)CCN(C(=O)c2ccc(Br)c(Cl)c2)C3)cc1,PCR,,HepG2.117,EC50,,>5 µM
Cc1nnnn1-c1ccc(-n2c(=O)c3c(n4ncc(Cc5ccccc5)c24)CN(C(=O)c2ccc(Br)c(C(F)(F)F)c2)[C@@H](C)C3)cc1,luminescence,,HepG2.117,EC50,,0.05–0.5 µM
COC(=O)[C@H](C)NP(=O)(OC[C@H]1O[C@@H](n2ccc3c(N)ncnc32)CC1F)Oc1ccccc1,,,HepG2 2.2.15,EC50,,10 µM
COc1cc(C#N)ccc1CNC(=O)c1c2n(c(=O)n1-c1ccc(OC(C)C)cc1)CCN(C(=O)c1ccc(Br)c(Cl)c1)C2,PCR,,HepG2.117,EC50,,0.1–0.5 µM
COc1nc(N)nc2c1ncn2[C@H]1CO[C@@H](CO)O1,,Wild,AD38,EC50,,33.4 µM
CC[C@@H](C)NC(=O)C(=O)N1CCC(NS(=O)(=O)c2cn(C)c(C(=O)Nc3cc(F)c(F)c(F)c3)c2F)CC1,PCR,,HepAD38 cells,EC50,,<0.1 µM
COc1ccc(-n2c(-c3ccccn3)c3n(c2=O)CCN(C(=O)c2ccc(Br)c(Cl)c2)C3)cc1,PCR,,HepG2.117,EC50,,>5 µM
OC[C@H]1O[C@@H](OCCc2ccc(O)c(O)c2)[C@H](O)[C@@H](O[C@@H]2OC[C@](O)(CO)[C@H]2O)[C@@H]1O,ELISA / antigen,,HepG2.2.15,EC50,,70 µM
N#CCCC1C(=O)c2ccc(-c3ccc(F)c(F)c3)cc2OC12CCCC2,,,HepG2.2.15,EC50,,0.002 µM
C[C@H](Oc1ccc([C@@H](C)NC(=O)c2c3n(c(=O)n2-c2ccc(OC4CC4)cc2)CCN(C(=O)c2ccc(Br)c(Cl)c2)C3)c(F)c1)C(N)=O,PCR,,HepG2.117,EC50,,0.1–0.5 µM
CCNC(=O)C(=O)N1CCC2(NS(=O)(=O)c3cn(C)c(C(=O)Nc4cc(F)c(F)c(F)c4)c3F)CC2C1,PCR,,HepAD38 cells,EC50,,<0.1 µM
C=C1[C@H](CO)[C@@H](O)C[C@@H]1n1cnc2c(=O)[nH]c(N)nc21,,,Huh7,EC50,,0.008 µM
C[C@H]1Cc2c(n3ncc(Cc4ccccc4)c3n(-c3ccc(-n4ccc(C(F)(F)F)n4)cc3)c2=O)CN1C(=O)c1ccc(Br)c(C(F)(F)F)c1,luminescence,,HepG2.117,EC50,,0.5–5 µM
CNC(=O)C(=O)N1CC[C@@H](NS(=O)(=O)c2c(F)c(C(=O)Nc3cc(F)c(F)c(F)c3)n3c2CCCC3)C1,PCR,,HepAD38 cells,EC50,,0.1–0.3 µM
NC(=O)c1ccc(-n2c(C(=O)NCc3ccccc3)c3n(c2=O)CCN(C(=O)c2ccc(Br)c(Cl)c2)C3)cc1,PCR,,HepG2.117,EC50,,>5 µM
Nc1nc(NC2CC2)c2ncn([C@H]3CO[C@@H](CO)O3)c2n1,,Wild,AD38,EC90,,>10 µM
O=C(NC1CC2(C1)CN(c1nc3cc(Cl)ccc3o1)C2)c1ccc(S(=O)(=O)C2CC2)o1,antigen / luminescence,,Primary human hepatocytes (PHH),EC50,,2.729 µM
Cc1ccnn1-c1ccc(-n2c(=O)c3c(n4ncc(Cc5ccccc5)c24)CN(C(=O)c2ccc(Br)c(Cl)c2)CC3)cc1,luminescence,,HepG2.117,EC50,,≤0.05 µM
C=C1[C@H](CO)[C@@H](O)C[C@@H]1n1cnc2c(=O)[nH]c(N)nc21,fluorescence,Genotype D,HepAD38,EC50,,0.076 µM
Nc1ccn([C@@H]2C=C(F)[C@H](CO)O2)c(=O)n1,,,HepAD38,EC90,,0.25 µM
O=C(NC1CCC2(CC1)CCN(c1nc3cc(Cl)ccc3o1)CC2)c1ccnc(S(=O)(=O)C2CC2)c1,antigen / luminescence,,Primary human hepatocytes (PHH),EC50,,5.583 µM
Cc1cc(NC(=O)c2c3c(cn2C)S(=O)(=O)N[C@H]2CN(C(=O)C(=O)NC4CC4)C[C@H]2CS3)ccc1F,PCR,,HepAD38,EC50,,<0.5 µM
CCOC(=O)C1=C(CN2CCOCC2)NC(C2=NC=CC2)=NC1c1ccc(F)cc1Br,hybridisation,,HepAD38,EC50,,0.06224 µM
CNC(=O)c1ccc(-n2c(=O)c3c(n4ncc(CC5CCC5)c24)CN(C(=O)c2ccc(Br)c(C(F)(F)F)c2)CC3)cc1,luminescence,,HepG2.117,EC50,,≤0.05 µM
COc1ccc(-n2c(C(=O)N[C@H](c3ccccc3)C(C)C)c3n(c2=O)CCN(C(=O)c2ccc(Br)c(Cl)c2)C3)cc1,PCR,,HepG2.117,EC50,,0.5–5 µM
CC(C)Cc1cnn2c3c(c(=O)n(-c4ccc(-c5cnnn5C)cc4)c12)C[C@@H](C)N(C(=O)c1ccc(Br)c(C(F)(F)F)c1)C3,luminescence,,HepG2.117,EC50,,≤0.05 µM
CP(C)(=O)c1cccc(C(=O)NC2CC3(C2)CC(c2nc4cc(Cl)ccc4s2)C3)c1,luminescence,,Primary human hepatocytes,EC50,,3.39 µM
COC(=O)[C@H](C)NP(=O)(OC[C@@H]1O[C@H](n2cnc3c(N)ncnc32)CC1F)Oc1ccccc1,,,HepG2 2.2.15,EC50,,24 µM
CCOC(=O)[C@H](C)NP(=O)(OC[C@@H]1OC[C@H](n2cnc3c(N)nc(N)nc32)O1)Oc1ccccc1,,Wild,AD38,EC90,,2.8 µM
CC(C)Cc1cnn2c3c(c(=O)n(-c4ccc(-c5nc(=O)on5C)cc4)c12)C[C@@H](C)N(C(=O)c1ccc(Br)c(C(F)(F)F)c1)C3,luminescence,,HepG2.117,EC50,,≤0.05 µM
COc1ccc(-n2c(C(=O)NCc3ccc(F)cc3)c3n(c2=O)CCN(C(=O)c2ccc(Cl)c(Cl)c2)C3)cc1,PCR,,HepG2.117,EC50,,0.5–5 µM
Cc1n[nH]nc1-c1ccc(-n2c(=O)c3c(n4ncc(CC(C)C)c24)CN(C(=O)c2ccc(Cl)c(C(F)(F)F)c2)[C@H](C)C3)cc1,luminescence,,HepG2.117,EC50,,≤0.05 µM
COC(=O)C1=C(C)NC(c2ncc(F)cc2F)=N[C@H]1c1ccc(F)cc1Cl,,,HepG2.2.15,EC50,,0.053 µM
Cc1n[nH]nc1-c1ccc(-n2c(=O)c3c(n4ncc(Cc5ccccc5)c24)CN(C(=O)c2ccc(Br)c(C(F)(F)F)c2)[C@H](C)C3)cc1,luminescence,,HepG2.117,EC50,,≤0.05 µM
Cc1cn([C@@H]2O[C@H](CO)[C@](O)(C(F)(F)F)[C@H]2O)c(=O)[nH]c1=O,,,,EC50,,≥100 µM

A second listing of 6 rows from above:

structure | read by | strain or isolate | cells | endpoint | mutations | result
Nc1nc(NC2CC2)c2ncn([C@H]3CO[C@@H](CO)O3)c2n1 |  | Wild | AD38 | EC90 |  | >10 µM
Cc1c(O)cc2c(c1O)C(=O)[C@H](Cc1ccc(O)cc1)CO2 | ELISA / antigen |  |  | EC50 |  | 3.82 µg/mL
COC(=O)[C@H](C)NP(=O)(OC[C@H]1O[C@@H](n2ccc3c(N)ncnc32)CC1F)Oc1ccccc1 |  |  | HepG2 2.2.15 | EC50 |  | 10 µM
CC[C@@H](C)NC(=O)C(=O)N1CCC(NS(=O)(=O)c2cn(C)c(C(=O)Nc3cc(F)c(F)c(F)c3)c2F)CC1 | PCR |  | HepAD38 cells | EC50 |  | <0.1 µM
COc1cc(C#N)ccc1CNC(=O)c1c2n(c(=O)n1-c1ccc(OC(C)C)cc1)CCN(C(=O)c1ccc(Br)c(Cl)c1)C2 | PCR |  | HepG2.117 | EC50 |  | 0.1–0.5 µM
Cc1n[nH]nc1-c1ccc(-n2c(=O)c3c(n4ncc(Cc5ccccc5)c24)CN(C(=O)c2ccc(Br)c(C(F)(F)F)c2)[C@H](C)C3)cc1 | luminescence |  | HepG2.117 | EC50 |  | ≤0.05 µM